Experimental data: patent US20090311265A1 (CRUCELL HOLLAND B V, published 2009)

B1: CR6257 (antibody, V domains shown)
VH: QVQLVQSGAEVKKPGSSVKVSCKASGGPFRSYAISWVRQAPGQGPEWMGGIIPIFGTTKYAPKFQGRVTITADDFAGTVYMELSSLRSEDTAMYYCAKHMGYQVRETMDVWGKGTTVTVSS
VL: QSALTQPAAVSGSPGQSITISCTGTSSDVGGYNYVSWYQQHPGKAPKLMIYEVSNRPSGVSNRFSGSKSGNTASLTISGLQAEDEADYYCSSYTSSSTYVFGTGTKVTVLG
B2: CR6262 (antibody, V domains shown)
VH: QVQLQQSGAEVKKPGSSVKVSCKVSGVIFSGSAISWVRQAPGQGLEWMGGISPLFGTTNYAQKFQGRVTITADQSTNTTYMEVNSLRYEDTAVYFCARGPKYYSEYMDVWGKGTTVTVSS
VL: DIQMTQSPSSLSASVGDRVTITCRASQGISSYLAWYQQKPGKVPTLLIYDASTLRSGVPSRFSGSGSATDFTLTISSLQPEDVATYYCQRYNSAPPITFGQGTRLEIKR
B3: CR6268 (antibody, V domains shown)
VH: QVQLVQSGAEVKKPGSSVKVSCKASGGTFSSYAISWVRQAPGQGLEWMGGIMGMFGTTNYAQKFQGRVTITADEFTSAAYMELRSLRSEDTAVYYCARSSGYYPEYFQDWGQGTLVTVSS
VL: QSVLTQPPSESVSPGQTASVTCSGHKLGDKYVSWYQQKPGQSPVLLIYQDNRRPSGIPERFIGSNSGNTATLTISGTQALDEADYYCQAWDSSTAVFGGGTKLTVLG
B4: CR6272 (antibody, V domains shown)
VH: QMQLVQSGAEVKKPGSSVKVSCKASGGTFSSYAITWVRQAPGQGLEWMGGIIGMFGSTNYAQNFQGRVTITADESTSTAYMELSSLRSEDTAVYYCARSTGYYPAYLHHWGQGTLVTVSS
VL: QSALTQPRSVSGSPGQSVTISCTGTSSDVGGYNYVSWYQQHPGKAPKLMIYDVSKRPSGVPDRFSGSKSGNTASLTISGLQAEDEADYYCSSYTSSSTHVFGTGTKVTVLG
B5: CR6307 (antibody, V domains shown)
VH: QVQLVQSGGGLVKPGGSLRLSCAASGFTFSSYSMNWVRQAPGKGLEWVSSISSSSSYIYYVDSVKGRFTISRDNAKNSLYLQMNSLRAEDTAVYYCARGGGSYGAYEGFDYWGQGTLVTVSS
VL: EIVLTQSPGTLSLSPGERATLSCRASQRVSSYLAWYQQKPGQAPRLLIYGASTRAAGIPDRFSGSGSGTDFTLTISRLEPEDSAVYYCQQYGRTPLTFGGGTKVEIKR
B6: CR6325 (antibody, V domains shown)
VH: EVQLVESGAEVKKPGSSVKVSCKASGGTFSFYSMSWVRQAPGQGLEWMGGIIPMFGTTNYAQKFQGRVTITAVESTSTAYMEVSSLRSEDTAVYYCARGDKGIYYYYMDVWGKGTTVTVSS
VL: QSALTQPASVSGSPGQSITISCTGTSSDVGGYNYVSWYQQHPGKAPKLMIYEVSNRPSGVSNRFSGSKSGNTASLTISGLQAEDEADYYCSSYTSSSTLVFGTGTKVTVLG
B7: CR6332 (antibody, V domains shown)
VH: QVQLVQSGAEVKKPGSSVKVSCKASGGPFRNFAINWVRQAPGQGLEWMGGIIAVFGTTKYAHKFQGRVTITADDSTNTAYMELGSLKSEDTAVYYCARGPHYYSSYMDVWGEGTTVTVSS
VL: DIQLTQSPSSLSASVGDRVTITCRASQGISTYLAWYQQKPGKVPKLLIYAASTLQSGVPSRFSGSGSGTDFTLTISSLQPEDVATYYCQKYNSAPSFGPGTKVDIKR
B8: CR6334 (antibody, V domains shown)
VH: EVQLVETGAEVKKPGSSVKVPCKSSGSPFRSNAVSWVRQAPGQGLEWVGGILGVFGSPSYAQKFQGRVTITADESTNTVHMELRGLRSEDTAVYYCARGPTYYYSYMDVWGKGTTVTVSS
VL: SYVLTQPPSESVAPGQTARITCGGNNIGRNSVHWYQQKPGQAPVLVVYDDSDRPSGIPERFSGSKSGNTATLIISRVEVGDEADYYCQVWHSSSDHYVFGTGTKVTVLG
B9: CR6336 (antibody, V domains shown)
VH: QMQLVQSGAEVKKPGSSVKVSCKASGGTFSSYAISWVRQAPGQGLEWMGGIFGMFGTANYAQKFQGRVTITADEFTSAAYMELSSLGSEDTAMYYCARSSGYYPQYFQDWGQGTLVTVSS
VL: EIVMTQSPGTLSLSPGQRATLSCRASQSVSSSYLAWYQQKPGQAPRLLMYGASSRATGIPDRFSGSGSGTDFTLTISRLEPEDFAVYYCQQYGSSSLTFGGGTKLEIKR
B10: CR6342 (antibody, V domains shown)
VH: QVQLVQSGAEVKKPGSSVKVSCKASGGFFSSYAISWVRQAPGQGLEWMGGVIPIFRTANYAQNFQGRVTITADEFTSYMELSSLRSDDTAVYYCARLNYHDSGTYYNAPRGWFDPWGQGTLVTVSS
VL: DIQMTQSPDSLAVSLGEKATINCKSSQSILNSSNNKNYLAWYQQKPGQPPKLLIYWASTRESGVPDRFSGSGSGTDFTLTISSLQAEDVAVYYCQQYYSSPPTFGQGTKVEIKR
B11: CR6343 (antibody, V domains shown)
VH: QVQLVQSGAEVKKPGSSVKVSCKASGVTFSYYAMSWVRQAPGQGLEWMGGISPMFGTTTYAQKFQGRVTITADDSTSTAYMEVRSLRSEDTAVYYCARSSNYYDSVYDYWGQGTLVTVSS
VL: QSVVTQPPSESVAPGQTARITCGGHNIGSNSVHWYQQKPGQAPVLVVYDNSDRPSGIPERFSGSNSGNTATLTISRVEAGDEADYYCQVWGSSSDHYVFGTGTKVTVLG

target: HA of BPL-inactivated virus preparation of strain A/New Caledonia/20/99 (H1N1) (influenza A virus A/New Caledonia/20/99 …); experiment: ELISA, coated inactivated virus, IgG 5 µg/ml

Row | Binder | OD 492 nm
1 | B1 | 1.34 OD 492 nm
2 | B2 | 0.51 OD 492 nm
3 | B3 | 1.39 OD 492 nm
4 | B4 | 0.92 OD 492 nm
5 | B5 | 0.23 OD 492 nm
6 | B6 | 1.09 OD 492 nm
7 | B7 | 1.2 OD 492 nm
8 | B8 | 1.13 OD 492 nm
9 | B9 | 1.09 OD 492 nm
10 | B10 | 1.32 OD 492 nm
11 | B11 | 0.91 OD 492 nm
